No end group written: not given here.
Assay: Peptide binding to pDa-coated PDMS channels (RP-HPLC)
Settings: internal area of ca. 100 mm^2; RP-HPLC before and after

For ILRWPWWPWRRK-NH2 [Omiganan], which “amount of bound peptide” value is on record?
The value was 12.48 ± 0.22 µg.

Which “amount of bound peptide” value does the source give for KRRWPWWPWRLI-NH2 [Retro-Omiganan] here?
The value was 12.35 ± 0.10 µg.
